Results of single-concentration screens

Measurements from “University of Dundee, Small-Polar-MMV Screening Library” (2021), ChEMBL document CHEMBL3988442.

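Growth of Mycobacterium tuberculosis over 3 days (7H9 medium with glucose and tyloxapol); the read-out is not stated. Compounds at 500 µM. Higher reads as more growth inhibition (inferred: compounds with an IC50 in retests scored well above the rest). About 18,000 compounds were tested under these conditions; 7.9% (about 1,400) showed 50% or more at least once.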

The filed quantity is “Percent Effect” (%). The controls that fix the scale are not given in the record; negative values are as filed. The entries come from a sample that favours strong results.

Result for CCCC(=O)Nc1ccc(S(=O)(=O)NCC)cc1 was 8.022%. With Cc1cnc(CCN)nc1 the screen gave 13.38%. Result for Cc1cc(C(=O)NC2CCC(=O)N(C)C2)c(C)o1 (centres undefined) was 1.283%. With O=C(NCC1CCNCC1)c1coc2ccccc12 the screen gave -6.244%. Result for O=C(c1ccccc1)N1CCC(NC2CCOCC2)C1 (centres undefined) was -7.969%.

Result for COc1cc(CNC2CC2)ccc1O was 20.26%. Result for CC(C(=O)NCc1cccs1)n1cccn1 (centres undefined) was 19.2%. For c1cn2c(n1)CCCC2 the result was 4.275%. For CC(C(N)=O)S(=O)(=O)c1ccc2ccccc2c1 (centres undefined) the result was 22.46%. Cc1cc(NC(=O)CN2CCN(C)CC2)n(C)n1 read 7.798%.

CCc1nsc(NC2CCN(C(C)=O)C2)n1 (centres undefined) read 19.03%. With O=C(NCc1ccc2c(c1)OCCCO2)c1cscn1 the screen gave 74.27%. For CC(C)(C)C(=O)N1CCN2C(=O)NCC2C1 (centres undefined) the result was 4.709%. For CCS(=O)(=O)N1CCC(C(=O)NC(C)(C)C)CC1 the result was 4.716%. With COCC(C)NC(=O)CNc1ccccc1OC(F)F (centres undefined) the screen gave 19.24%.

For CC(C)(CN)C1(O)CCOC1 (centres undefined) the result was 7.363%. CCN(CCO)C[C@@H]1CN(C(=O)C2(C)CC2)C[C@@H]1CO gave 0.3106%. Result for Cc1cc(C(=O)Nc2cc(C(F)(F)F)c[nH]c2=O)no1 was 6.65%. Result for Cc1nc(CCN(C)C(=O)CCc2cccnc2)no1 was 8.268%. With COc1cccc(C(=O)NC2CCN(C(C)C)CC2)c1 the screen gave 18.85%.

COc1cc2c(cc1CN(C)[C@H]1COC[C@@H]1O)OCO2 read 13.46%. CC(=O)c1csc(NC(=O)Cc2ccc(C)nc2)n1 gave 39.52%. COc1ccccc1N1CCCC(N)C1 (centres undefined) read 37.55%. Result for CS(=O)(=O)N1CCC(Nc2ncc(Br)cn2)CC1 was -3.951%. For CN(C)C(=O)NC1CCNCC1 the result was -4.62%.

CC1c2cccn2CCN1CC(N)=O (centres undefined) gave -21.53%. CC1(C)C(=O)NCCN1C(=O)Cc1ccccc1Cl read 21.64%. CCOC(=O)N1CCN(Cc2nc(C3CC3)no2)CC1 read 83.24%. O=C(CN1CCn2ccnc2C1)Nc1ccc(Cl)cn1 read 27.15%. N#CC1=C(N)n2ncnc2NC1c1ccccc1 (centres undefined) gave -6.983%.

CNC(=O)Nc1ccc2c(c1)C(=O)N(C)C2=O read 5.148%. Result for CCC(CC)C(O)CNC(=O)Cn1cnnn1 (centres undefined) was -7.512%. CS(=O)(=O)CCN1CCCC(CO)(CC2CC2)C1 (centres undefined) read 17.76%. Result for CCN(CC)C(=O)NCC(O)c1ccsc1 (centres undefined) was 4.488%. For CC(CN1CCOCC1)Nc1ccncn1 (centres undefined) the result was 0.4997%.

CCC(CNC(=O)C1=NN(C)C(=O)CC1)N1CCCC1 (centres undefined) gave 8.968%. Cc1cc(F)cc(C(=O)N[C@H](CO)C(C)C)c1 read 15.36%.

For reference, 2 entries once more:

With Cc1cnc(CCN)nc1 the screen gave 13.38%.
With CNC(=O)Nc1ccc2c(c1)C(=O)N(C)C2=O the screen gave 5.148%.